Measurements reported in the supplement of paper PMC3578754.
Fold change is the IC50 on the isolate divided by the IC50 on a reference virus; 1 = unchanged, higher = more resistant. Changes are given against the subtype B consensus. No active / inactive call. The values were gathered from many studies (numbered anew) with different assays, which the source does not name. Most viruses are clinical isolates; some are laboratory strains or clones with known resistance changes. Isolates with mixed residues are left out; stretches that were not sequenced show no change. Round top values that many isolates share are read here as limits; other very high values and 0.1 may be limits too. The protease changes I3V and N37S, insertions and deletions cannot be read from the source.

Legend:
Assay in all cases: fold change of IC50 against reference virus; higher = more resistant; Cell-culture drug susceptibility tests of virus bearing the protease of each isolate, gathered from many studies.
[1] = compound: CC(C)(C)NC(=O)[C@@H]1CN(Cc2cccnc2)CCN1C[C@@H](O)C[C@@H](Cc1ccccc1)C(=O)N[C@H]1c2ccccc2C[C@H]1O [indinavir]
[2] = compound: CC(C)(C)NC(=O)[C@@H]1C[C@@H]2CCCC[C@@H]2CN1C[C@@H](O)[C@H](Cc1ccccc1)NC(=O)[C@H](CC(N)=O)NC(=O)c1ccc2ccccc2n1 [saquinavir]
[3] = compound: CC(C)c1nc(CN(C)C(=O)N[C@H](C(=O)N[C@@H](Cc2ccccc2)C[C@H](O)[C@H](Cc2ccccc2)NC(=O)OCc2cncs2)C(C)C)cs1 [ritonavir]
[4] = compound: Cc1c(O)cccc1C(=O)N[C@@H](CSc1ccccc1)[C@H](O)CN1C[C@H]2CCCC[C@H]2C[C@H]1C(=O)NC(C)(C)C [nelfinavir]

Test System	fold change of IC50 against reference virus [1]	fold change of IC50 against reference virus [2]	fold change of IC50 against reference virus [3]	fold change of IC50 against reference virus [4]
HIV-1 isolate 264 (protease changes: D30N E35D M36I L63P, study 89)	1	2	1	8
HIV-1 isolate 922 (protease changes: I15V N37C I54V I62V L63P V82A I93L, study 119)	8.3	0.9	22.1	11.5
HIV-1 isolate 968 (protease changes: L63S K70R, study 54)	0.4	0.5	0.6	0.5
HIV-1 isolate 473 (protease changes: T12S I15V L19I M36I R41K Q61N H69K L89M I93L, study 139)	0.4	0.6	1	0.2
HIV-1 isolate 962 (protease changes: L10F I13V L19T D30N R41K L63P N88D L90M, study 66)	1.7	5	2.5	47
HIV-1 isolate 1353 (protease changes: K20R D30N M36I L63H A71V, study 110)	0.9	0.4	0.9	11.1
HIV-1 isolate 125 (protease changes: D30N L63P V77I N88D L90M, study 66)	2.3	3.9	3.1	67
HIV-1 isolate 297 (protease changes: E35D N37E I62V L63P I64V A71T L90M, study 57)	5	4	3	2
HIV-1 isolate 978 (protease changes: D30N, study 61)	0.1	0.3	0.2	6
HIV-1 isolate 299 (protease changes: L10I G48V I54V V77I V82A I84V, study 112)	12	592	75.5	10.2
HIV-1 isolate 1030 (protease changes: L10I K20R M36I I54V L63P A71V V82T I84V L90M, study 110)	20.3	91	100	34.7
HIV-1 isolate 427 (protease changes: L10I E35D R41K I62V L63P V77I I93L, study 54)	0.9	0.6	0.9	1.8
HIV-1 isolate 313 (protease changes: L10I I13V K20I E35D M36I N37D I54V Q58E L63P I66F A71V V82T, study 119)	22.9	6.5	49.5	30.8
HIV-1 isolate 83 (protease changes: I13V K14R K20I M36I R41K I64L H69K L89M I93M N98I, study 114)	0.4	0.6	0.6	0.5
HIV-1 isolate 1443 (protease changes: K14R R41K L63S I64V, study 54)	0.6	0.5	0.8	0.6
HIV-1 isolate 678 (protease changes: D30N M36I I54V L63P A71V N88D L90M, study 66)	12	46	27	140
HIV-1 isolate 135 (protease changes: M36I R57K D60E Q61E I62V L63P A71T I93L, study 54)	0.9	0.5	0.9	1.4
HIV-1 isolate 829 (protease changes: L10I I13V I64V, study 54)	0.9	0.6	0.8	1
HIV-1 isolate 1627 (protease changes: I13V R41K I64V H69Y, study 15)	0.7	0.6	0.5	0.8
HIV-1 isolate 118 (protease changes: D30N M36I L63P A71T N88D L90M, study 66)	2.6	4.4	3.6	124
HIV-1 isolate 259 (protease changes: D30N L63P V77I N88D L90M, study 66)	3.2	7.1	4	74
HIV-1 isolate 1057 (protease changes: L10F L24I E35D M36I M46L I54V L63P I64V V82A, study 8)	9.3	2.4	37.9	27.4
HIV-1 isolate 1012 (protease changes: L10I V11I I13V G16E E35D L63T I64V C67Y V77I V82F, study 119)	2.7	0.3	8	4.3
HIV-1 isolate 775 (protease changes: L10I T12A K14R D60E L63C I64V A71V L90M I93L, study 57)	1	3	1	2
HIV-1 isolate 1609 (protease changes: L10F K20T D30N L33F M36I M46I I54L L63P A71V V77I N88D L90M, study 66)	6.8	45	31	550
HIV-1 isolate 1472 (protease changes: Q18H L19I M46L L63P L90M Q92R I93L C95F, study 119)	7.5	2.6	4.2	9.3
HIV-1 isolate 1441 (protease changes: L10V M36I M46I G48V D60E L63Q I64V I72V L90M, study 57)	1	7	3	2

Test System	fold change of IC50 against reference virus [1]	fold change of IC50 against reference virus [2]	fold change of IC50 against reference virus [3]	fold change of IC50 against reference virus [4]
HIV-1 isolate 573 (protease changes: L10I G17E N37D K43T G48V I54V L63P C67S A71V V77I V82A I84V I93L, study 112)	12	574	62.2	11
HIV-1 isolate 861 (protease changes: L10F I13V K20T D30N E35D M36I K45Q M46I I54V I62V L63Q I64V I72V N88D, study 120)	6.1	13.5	11.9	500
HIV-1 isolate 1189 (protease changes: T74S V82A, study 57)	1	1	1	1
HIV-1 isolate 1364 (protease changes: L10F D30N L63P A71T V77I N88D L90M, study 66)	5.2	21	10.2	140
HIV-1 isolate 708 (protease changes: G48V R57G L90M, study 110)	3.7	12.9	4.4	3
HIV-1 isolate 484 (protease changes: L10T R41K G48V D60N L63P T74S V77I V82A, study 57)	5	7	5	5
HIV-1 isolate 1173 (protease changes: L10I I13V I15V D30N I62V L63I A71T I93L, study 89)	1	1	1	5
HIV-1 isolate 1546 (protease changes: I13V I15V M36I I62V L63P K70R, study 54)	0.8	0.6	1.3	1.5
HIV-1 isolate 564 (protease changes: T12S K14R I15V L19I M36I R41K L63S H69K T74S L89M I93L, study 114)	0.6	0.6	0.7	0.6
HIV-1 isolate 1577 (protease changes: L10I K14R I15V E35D R41K L63P V77I I93L, study 54)	0.8	0.8	0.9	1.2
HIV-1 isolate 1047 (protease changes: L10I K20R E35D M36I M46I F53L I54V D60E L63P A71V I84V L90M I93L, study 145)	12	132	139	37
HIV-1 isolate 1388 (protease changes: K14R L63P, study 54)	1.3	1.3	2.8	2.5
HIV-1 isolate 1131 (protease changes: D30N A71V, study 61)	0.6	0.3	0.2	30.6
HIV-1 isolate 1544 (protease changes: I13V E35D M36I R41K L63P I64V V77I, study 54)	1	1	2.8	2.7
HIV-1 isolate 465 (protease changes: L10I I15V L24I E35D M46L I54V Q58E L63P A71V V82A Q92K, study 119)	50.7	12.3	128	65.8
HIV-1 isolate 234 (protease changes: G16E E35D I62V L63A, study 54)	0.7	0.9	0.8	0.6
HIV-1 isolate 1106 (protease changes: L10I R57G L63P A71V I84V L90M, study 110)	3.6	9	12	6.2
HIV-1 isolate 529 (protease changes: M46I A71V, study 110)	4.4	0.8	5.9	3.4
HIV-1 isolate 55 (protease changes: T12A R41K L63P I84V, study 54)	1.4	1.2	3.6	1.3
HIV-1 isolate 1202 (protease changes: L10I K20R M36I M46L I54V L63P A71V V82A L90M, study 110)	32.2	29.1	203	122
HIV-1 isolate 1128 (protease changes: L10I M46I R57G L63P A71V I84V L90M, study 110)	4.2	4.9	11.3	11.5
HIV-1 isolate 12 (protease changes: K14R L63P, study 54)	0.8	0.7	1.1	0.7
HIV-1 isolate 642 (protease changes: G48V I72V T74S V82A, study 57)	9	6	14	11
HIV-1 isolate 1297 (protease changes: L10I I13V K20I E35D M36I I54V L63P I66F A71V V82T, study 119)	24	4.7	47.1	27.1
HIV-1 isolate 235 (protease changes: I13V E35D L63P, study 54)	1.1	0.6	1.4	2.3
HIV-1 isolate 680 (protease changes: L63P I64M K70R, study 54)	0.5	0.4	0.6	0.5
